Measured values from several laboratories, pooled; numbers as filed in NIAID ChemDB.

All rows: whole-cell or culture tests; agent: Aspergillus niger; endpoint: MIC

Blank or dashed fields: not listed here.

compound | strain or isolate | method | conditions | value
Cc1cc(Cl)[nH]c2ccc3c(=O)c(C(=O)NN=Cc4ccc(Cl)cc4)cnc3c12 |  | broth dilution |  | 250 µg/mL
Cc1nn(-c2ccccc2)c2c1C(c1ccc(O)cc1)c1c(nc(=S)[nH]c1N)O2 | MTCC 282 |  |  | 250 µg/mL
CCOc1ccc2nc(NC(=O)CSc3nnc(-c4ccc5ncccc5c4)o3)sc2c1 |  | agar |  | 25 µg/mL
Clc1ccc(CO/N=C2/c3ccc(Cl)cc3OCC2n2cncn2)c(Cl)c1 | ATCC 16401 |  |  | 64 µg/mL
CCOc1ccc(NC(=O)CSc2nnc(-c3ccc4ncccc4c3)o2)cc1 |  | agar |  | 50 µg/mL
CN(C)C(=S)N(C)C | MTCC 1349 | visual reading |  | 140 µg/mL
Cc1ccc(C2c3c(nc(=O)[nH]c3N)Oc3c2c(C)nn3-c2ccccc2)cc1 | MTCC 282 |  |  | 500 µg/mL
CC1CCC(C(C)C)C(OC(=O)/C=C/c2cccc([N+](=O)[O-])c2)C1 |  |  |  | 4.68 µM
COc1ccc(OC/C(=N/O)c2ccccc2)cc1 | ATCC 16404 | broth dilution | 48 h | >125 µg/mL
Fc1cccc(CO/N=C2\c3ccccc3OCC2n2cncn2)c1 | ATCC 16401 |  |  | 2 µg/mL
Cc1cc(Cl)[nH]c2ccc3c(=O)c(C(=O)NN=Cc4ccccc4)cnc3c12 |  | broth dilution |  | >1000 µg/mL
O/N=C(/COc1cccc(Cl)c1)c1ccccc1 | ATCC 16404 | broth dilution | 72 h | >125 µg/mL
Cc1nn(-c2ccccc2)c2c1C(c1ccccc1Cl)c1c(nc(=S)[nH]c1N)O2 | MTCC 282 |  |  | >1000 µg/mL
O=C(CSc1nnc(-c2ccc3ncccc3c2)o1)Nc1nc2ccc(I)cc2s1 |  | agar |  | 100 µg/mL
Cc1nn(-c2ccccc2)c2c1C(c1cccc(Cl)c1)c1c(nc(=O)[nH]c1N)O2 | MTCC 282 |  |  | 1000 µg/mL
O=C(NN1C(=O)/C(=C\c2ccccc2)SC1c1ccccc1)c1ccc(-c2ccccc2)cc1 | MTCC 8189 |  |  | 6.25 µg/mL
CCN=C(Nc1cccc(OC)c1)N(CC)c1nc2cc(OC)ccc2s1 |  |  |  | 80–100 µg/mL
COc1ccccc1C(=O)OC1CC(C)CCC1C(C)C |  |  |  | 8.51 µM
COc1ccc(/C=C2/SC(c3ccccc3)N(NC(=O)c3ccc(-c4ccccc4)cc3)C2=O)cc1 | MTCC 8189 |  |  | 1.56 µg/mL
O=C(/C=C/c1ccc(OCCCCOc2ccc(/C=C/C(=O)c3ccccc3)cc2)cc1)c1ccccc1 |  | broth dilution |  | 16 µg/mL
COc1ccc(OCC(=O)c2ccccc2)cc1 | ATCC 16404 | broth dilution | 48 h | >125 µg/mL
CCn1sc(=Nc2cccc(OC)c2)n(CC)c1=Nc1cccc(OC)c1 |  |  |  | 60–80 µg/mL
Cc1nn(-c2ccccc2)c2c1C(c1ccc(Cl)cc1)c1c(nc(=S)[nH]c1N)O2 | MTCC 282 |  |  | >1000 µg/mL
Clc1ccc(CO/N=C2/c3ccccc3OCC2n2cncn2)cc1Cl | ATCC 16401 |  |  | 4 µg/mL
O=C(NN1C(=O)/C(=C\c2ccc(Cl)cc2)SC1c1ccccc1)c1ccc(-c2ccccc2)cc1 | MTCC 8189 |  |  | 3.12 µg/mL
COc1cc(OC/C(=N/O)c2ccccc2)cc(OC)c1OC | ATCC 16404 | broth dilution | 72 h | >125 µg/mL
Cc1cc(Cl)[nH]c2ccc3c(=O)c(C(=O)NN4C(=O)C(Cl)C4c4ccccc4O)cnc3c12 |  | broth dilution |  | 1000 µg/mL
CCN=C(Nc1cccc(C)c1)N(CC)c1nc2cc(C)ccc2s1 |  |  |  | 120–150 µg/mL
COc1ccc(/C=C2/SC(c3cccc(Br)c3)N(NC(=O)c3ccc(-c4ccccc4)cc3)C2=O)cc1 | MTCC 8189 |  |  | 3.12 µg/mL
COc1ccccc1OC/C(=N/O)c1ccccc1 | ATCC 16404 | broth dilution | 72 h | >125 µg/mL
Cc1cc(Cl)[nH]c2ccc3c(=O)c(C(=O)NN4C(=O)C(Cl)C4c4ccccc4Cl)cnc3c12 |  | broth dilution |  | 250 µg/mL
Cc1ccccc1C(=O)OC1CC(C)CCC1C(C)C |  |  |  | 11.48 µM
O=C(/C=C/c1ccc(OCCCCCCOc2ccc(/C=C/C(=O)c3ccccc3)cc2)cc1)c1ccccc1 |  | broth dilution |  | 8 µg/mL
Cc1nn(-c2ccccc2)c2c1C(c1ccccc1)C(C#N)=C(N)O2 | MTCC 282 |  |  | 500 µg/mL
Fc1ccc(CO/N=C2\c3ccccc3OCC2n2cncn2)cc1 | ATCC 16401 |  |  | 8 µg/mL
Clc1ccccc1C(c1ccccc1)(c1ccccc1)n1ccnc1 | MTCC 8189 |  |  | 0.3 µg/mL
O=C(/C=C/c1ccc(OCCCCCOc2ccc(/C=C/C(=O)c3ccccc3)cc2)cc1)c1ccccc1 |  | broth dilution |  | 8 µg/mL
Cc1nn(-c2ccccc2)c2c1C(c1cccc(Cl)c1)c1c(nc(=S)[nH]c1N)O2 | MTCC 282 |  |  | 1000 µg/mL
O/N=C(/COc1ccc(F)cc1)c1ccccc1 | ATCC 16404 | broth dilution | 72 h | >125 µg/mL
Fc1ccccc1CO/N=C1\c2ccccc2OCC1n1cncn1 | ATCC 16401 |  |  | 16 µg/mL
O=C(CSc1nnc(-c2ccc3ncccc3c2)o1)Nc1ccc(Cl)cc1 |  | agar |  | 100 µg/mL
Cc1nn(-c2ccccc2)c2c1C(c1ccccc1)c1c(nc(=O)[nH]c1N)O2 | MTCC 282 |  |  | >1000 µg/mL
CC1CCC(C(C)C)C(OC(=O)c2ccccc2)C1 |  |  |  | 12.02 µM
Cc1cc(Cl)[nH]c2ccc3c(=O)c(C(=O)NN4C(=O)C(Cl)C4c4cc([N+](=O)[O-])ccc4O)cnc3c12 |  | broth dilution |  | 500 µg/mL
O=C(N/N=C/c1cc([N+](=O)[O-])ccc1O)c1ccc(I)cc1 | Strain 1 |  |  | 0.4 µg/mL
CC1CCC(C(C)C)C(OC(=O)c2cccc([N+](=O)[O-])c2)C1 |  |  |  | 5.13 µM
Cc1cc(Cl)[nH]c2ccc3c(=O)c(C(=O)NN=Cc4ccccc4Cl)cnc3c12 |  | broth dilution |  | 500 µg/mL
C[C@@H](c1ncncc1F)[C@](O)(Cn1cncn1)c1ccc(F)cc1F | 21 | broth dilution |  | 1 µg/mL
c1ccc(C2=NN(c3ccccc3)C(c3ccc(OCCCCCCCCCCCCOc4ccc(C5CC(c6ccccc6)=NN5c5ccccc5)cc4)cc3)C2)cc1 |  | broth dilution |  | 8 µg/mL
Cc1ccc(C=NNC(=O)c2cnc3c(ccc4[nH]c(Cl)cc(C)c43)c2=O)cc1 |  | broth dilution |  | 500 µg/mL
CCn1sc(=Nc2ccccc2)n(CC)c1=Nc1ccccc1 |  |  |  | 80–100 µg/mL

A second listing of 6 rows from above:

compound,strain or isolate,method,conditions,value
CC1CCC(C(C)C)C(OC(=O)/C=C/c2cccc([N+](=O)[O-])c2)C1,,,,4.68 µM
Clc1ccc(CO/N=C2/c3ccc(Cl)cc3OCC2n2cncn2)c(Cl)c1,ATCC 16401,,,64 µg/mL
COc1ccc(/C=C2/SC(c3cccc(Br)c3)N(NC(=O)c3ccc(-c4ccccc4)cc3)C2=O)cc1,MTCC 8189,,,3.12 µg/mL
CCN=C(Nc1cccc(OC)c1)N(CC)c1nc2cc(OC)ccc2s1,,,,80–100 µg/mL
O=C(CSc1nnc(-c2ccc3ncccc3c2)o1)Nc1ccc(Cl)cc1,,agar,,100 µg/mL
Cc1ccc(C=NNC(=O)c2cnc3c(ccc4[nH]c(Cl)cc(C)c43)c2=O)cc1,,broth dilution,,500 µg/mL

Lines come from different laboratories, so protocols vary. a–b is a range or a potency band.